Organism: Mus musculus
Test: Toxicity in mouse allografted with mouse L1210 cells
Assay type: organism-based

C[As](C)Sc1ncnc2[nH]cnc12
Activity: 50 mg/kg

C[As](C)SC(C)(C)C(N)C(=O)O.Cl (stereo not drawn)
Activity: 100 mg/kg

C[As](C)SC(C)(C)C(N)C(=O)O (stereo not drawn)
Activity: 50 mg/kg
